Anti-infective test results gathered from many reports (values: NIAID ChemDB through PubChem).

All rows: toxicity to cultured cells; cells: VERO; endpoint: CC50

CCn is the concentration with n% toxicity to the cells. Two numbers with a dash give a range or band. Rows are shuffled and stem from different studies.

structure | value
CC1=C(C)C(CO)(CO)C[C@H]1n1cnc2c(N)ncnc21 | >100 µg/mL
Clc1ccc(Cl)c(N/N=C/c2c[nH]c3ccccc23)c1 | 5.4 µg/mL
NC(=S)c1cn([C@H]2C[C@H](O)[C@@H](CO)O2)c2ncnc(N)c12 | 4 µM
Nc1c2c(-c3ccc(Br)cc3)c3c(=O)[nH]c(=O)[nH]c3nc2nc(=S)n1-c1ccccc1 | 50 µg/mL
O=C(Nc1cccnc1)c1ccc(CSc2ccc(Cl)cc2)o1 | 12.8 µg/mL
N=C(N)c1cn([C@H]2C[C@H](O)[C@@H](CO)O2)c2ncnc(N)c12 | 11 µM
C[C@@H]1CC[C@]2(C(=O)O)CC[C@]3(C)C(=CCC4[C@@]5(C)CC[C@H](O)[C@](C)(CO)C5CC[C@]43C)C2[C@H]1C | 33.7 µg/mL
O=c1[nH]c(=O)n([C@H]2C[C@H](O)[C@@H](CO)O2)cc1/C=C/Br | >400 µg/mL
Nc1ncnc2c1ncn2[C@@H]1C=C(CO)[C@@H](O)[C@H]1O | 250 µg/mL
O=C(NNC=NCc1ccccn1)c1ccncc1 | >10 µg/mL
CC12C(=O)c3cccc(O)c3C(=O)C1CC13OC12C(=O)c1c(O)cccc1C3=O | 3.89 µg/mL
COc1c(CO)c(C)c(CC(C)OC(C)=O)c2[nH]c3ccc(C(=O)CC4=C(C)CC(C)(C)CC4)cc3c12 | >128 µM
CC(C)(C)c1ccc(CNc2ccc(N3CCOCC3)cc2)cc1 | 8 µg/mL
CC#Cc1cn([C@@H]2O[C@H](COP(=O)(O)Oc3ccccc3)[C@@H](O)[C@@H]2O)c(=O)[nH]c1=O | >500 µM
Cc1cn([C@H]2C[C@H](N=[N+]=[N-])[C@@H](CO)O2)c(=O)nc1N | >400 µM
Nc1nccc2c1ncn2[C@@H]1C[C@H](CO)[C@@H](O)[C@H]1O | ≥200 µg/mL
CC#Cc1cn([C@@H]2O[C@H](COP(=O)(O)OCC(F)(F)F)[C@@H](O)[C@@H]2O)c(=O)[nH]c1=O | >250 µM
CC(=O)C1=C(C(=O)O)[NH+]([O-])C2C=CC=CC2[NH+]1[O-] | 35.98 µg/mL
CCCCCCCn1c2ccccc2c2cc(CO)c(C)cc21 | 30 µM
N=C(N)c1ccc(-c2ccc(-c3ccccc3)o2)cc1 | 1.5 µg/mL
Cc1cn([C@H]2C[C@H](N=[N+]=[N-])[C@@H](CO)O2)c(=O)[nH]c1=O | 23 µM
Cc1[nH]c2ccccc2c1/C=N/N(C)c1ccccc1 | 5.96 µg/mL
CNc1nc2sc3c(c2c(=O)n1N)CCCC3 | 250 µg/mL
C[C@H]1[C@H](C)CC[C@]2(C(=O)O)CC[C@]3(C)C(=CC[C@@H]4[C@@]5(C)CC[C@H](O)C(C)(C)[C@@H]5CC[C@]43C)[C@H]12 | 46.5 µg/mL
Cc1cc2c(ccc3nc(N)nc(N)c32)[nH]1 | 20 µg/mL
C[C@H]1CC(=O)c2c(O)cccc2[C@H]1O | 0.15 µg/mL
C[C@@]1(CO)[C@H](O)CC[C@@]2(C)[C@H]1CC[C@H]1C[C@@H]3C[C@@]12CC[C@]3(O)CO | 5 µg/mL
CC(C)(C)c1ccc(CNc2ccc(N3CCSCC3)cc2)cc1 | 2 µg/mL
CC(C)OC(=O)c1cc(-c2cc3ccccc3s2)on1 | >128 µM
COc1ccc2c(C)cc(N/N=C/c3ccccn3)nc2c1 | 0.82 µg/mL
COc1cc(OC)c(N2C(=O)C=C(c3ccccc3)C2=O)c(OC)c1 | 20 µg/mL
CCc1cn([C@H]2C[C@H](O)[C@@H](CO)S2)c(=O)[nH]c1=O | >1800 µM
Cc1cn([C@H]2C[C@H](N=[N+]=[N-])[C@@H](COP(=O)(O)OC[C@H]3CC[C@@H](n4cnc5c(N)ncnc54)O3)O2)c(=O)[nH]c1=O | >200 µM
NC(=S)c1cn([C@@H]2O[C@H](CO)[C@@H](O)[C@@H]2O)c2ncnc(N)c12 | 1 µM
Cn1cc(NC(=O)c2cc(NC(=O)CCCCCCCC(=O)Nc3cc(C(=O)Nc4cc(C(=O)NCCC(N)=[NH2+])n(C)c4)n(C)c3)cn2C)cc1C(=O)NCCC(N)=[NH2+] | 195 µg/mL
CC1=CC(=O)c2c(ccc(-c3ccc4c(c3O)C(=O)C=C(C)C4=O)c2O)C1=O | 0.13 µg/mL
O=C(NC=Nc1ccc(C(=O)O)c(O)c1)c1cnccn1 | >10 µg/mL
C=C(C)[C@@H]1CC[C@]2(CO)CC[C@]3(C)C(CCC4[C@@]5(C)CC[C@H](O)C(C)(C)C5CC[C@]43C)C12 | 101 µg/mL
Cc1cn([C@H]2CC(N=[N+]=[N-])[C@@H](COP(=O)(OCCC#N)OC[C@H]3CC[C@@H](n4cnc5c(=O)[nH]cnc54)O3)O2)c(=O)[nH]c1=O | >200 µM
CCOC(=O)[C@H]1O[C@@H]([C@@]2(C)O[C@]3(O[C@]4(C=C[C@H]3O)O[C@H]([C@@H](C)C(=O)[C@@H](C)[C@@H](O)[C@H](C)C[C@H](C)c3c(Cl)cc(C)c(O)c3C(=O)O)[C@@H](C)C[C@H]4C)[C@H](C)[C@H]2OC)C[C@H]1O | 1.68 µg/mL
Nc1ncnc2c1ncn2[C@H]1[C@H](O)[C@H](O)[C@]2(CO)O[C@H]12 | 50 µg/mL
O=c1[nH]c(=O)n([C@H]2C[C@H](O)[C@@H](CO)O2)cc1/C=C/Br | 32 µg/mL
Nc1nc(N)c2ncn(C[C@H]3CC[C@@H](CO)C3)c2n1 | ≥400 µg/mL
OC[C@H]1O[C@@H](n2cnc3c(Cl)ncnc32)CS1 | 46.5 µM
CC(C)Cn1c2ccccc2c2c3c(c4c5ccccc5[nH]c4c21)C(=O)NC3=O | <8 µM
CCOC(=O)c1noc(/C=C/c2ccc(Cl)cc2)c1C(=O)c1ccccc1 | >128 µM
Nc1nc2c(ncn2[C@@H]2CS[C@@H](CO)O2)c(=O)[nH]1 | 63.6 µM
COc1cc(O)c(CC=C(C)C)c2c1C(=O)CC(c1ccc(O)cc1)O2 | 55 µg/mL
Nc1nc(=O)n([C@@H]2O[C@H](CO)C[C@H]2F)cc1F | 40.5 µM
Nc1nc2ncn(COCCCl)c2c(=O)[nH]1 | 145 µg/mL
Cc1cn([C@H]2C[C@H](N=[N+]=[N-])[C@@H](CO)O2)c(=O)[nH]c1=O | 29 µM
CC#Cc1cn([C@@H]2O[C@H](COP(=O)(NCCC)Oc3ccccc3)[C@@H](O)[C@@H]2O)c(=O)[nH]c1=O | 125 µM
COc1cc(C(=O)O)cc2c1[nH]c1ccccc12 | >128 µM
COc1cc([C@@H]2OC[C@@]3(O)[C@@H]2CO[C@H]3c2ccc(O)c(OC)c2)ccc1O | 91 µg/mL
NC(=O)c1nnn([C@@H]2C[C@H](CO)C[C@H]2O)c1N | >100 µM
Nc1nc2c(ncn2COC(CO)CO)c(=O)[nH]1 | 1–5 µM
Cc1c([N+](=O)[O-])oc2ccc3ccccc3c12 | >10 µg/mL
CC1=CC(=O)c2c(O)ccc(-c3ccc(O)c4c3C(=O)C(C)=CC4=O)c2C1=O | 233 µg/mL
COc1cc(/C=C/C(=O)O)ccc1O | >102 µg/mL
CCCn1c2ccccc2c2c3c(c4c5ccccc5[nH]c4c21)C(=O)NC3=O | <8 µM
N#Cc1c(NC(=S)Nc2ccccc2)nc2[nH]c(=O)[nH]c(=O)c2c1-c1ccc(Cl)cc1 | 40 µg/mL
Nc1nc2ncn(COCCO)c2c(=O)[nH]1 | 99 µg/mL
CCOC(=O)Nc1cc(NC(C)CC(C)CN(CC)CC)c2nc(-c3ccccc3)c(-c3ccccc3)nc2n1 | 6.3 µg/mL
Nc1ncnc2c1ncn2C[C@H](O)CO | >400 µg/mL
N#Cc1c(NC(=O)Nc2ccccc2)nc2[nH]c(=O)[nH]c(=O)c2c1-c1ccc(Cl)cc1 | 70 µg/mL
CC1=C(C)[C@](CO)(c2ccccc2)C[C@H]1n1ccc(N)nc1=O | >100 µg/mL
CC#Cc1cn([C@@H]2O[C@H](COP(=O)(O)Oc3cccc(Cl)c3)[C@@H](O)[C@@H]2O)c(=O)[nH]c1=O | 79 µM
Nc1ncnc2c1ncn2[C@H]1CC[C@@H](CO)O1 | >100 µM
CC1N(C)CCC1(C)CN1c2ccccc2Sc2ccccc21.Cl | 2.6 µg/mL
COc1cc(O)c2c(=O)cc(-c3ccc(OC)c(-c4c(O)cc(O)c5c(=O)cc(-c6ccc(O)cc6)oc45)c3)oc2c1 | 11.5 µg/mL
Cc1cc2c(cc1O)[nH]c1ccccc12 | 36 µM
C=CC(O)C#CC#CC(O)/C=C\CCCCCCCCOC(C)=O | >120 µg/mL
COc1ccc(/C(C)=N/NC(=O)c2ccncc2)cc1OC | >10 µg/mL
CC#Cc1cn([C@@H]2O[C@H](COP(=O)(O)OCC)[C@@H](O)[C@@H]2O)c(=O)[nH]c1=O | >250 µM
CCN(CC)CCCNc1ccc(C)c2sc3ccccc3c(=O)c12 | 7.5 µg/mL
CCOC(=O)c1noc(/C=C/c2cccc(Cl)c2)c1C(=O)c1ccccc1 | 108.4 µM
COc1ccc(-c2oc3cc(O)c(OC)c(O)c3c(=O)c2OC)cc1 | 28.7 µg/mL
OC[C@H]1O[C@H](n2cnc3c(Cl)ncnc32)CS1 | 86.1 µM
N/C(=N/O)c1cn([C@H]2C[C@H](O)[C@@H](CO)O2)c2ncnc(N)c12 | 70 µM
O=C1c2ccccc2C(=O)c2sc(Nc3cccc(Cl)c3)nc21 | 2 µg/mL
CCc1cn([C@H]2C[C@H](N=[N+]=[N-])[C@@H](CO)O2)c(=O)[nH]c1=O | ~2000 µM
N#Cc1c(Cl)nc2nc(Cl)nc(Cl)c2c1-c1ccc(Br)cc1 | 190 µg/mL
O=c1[nH]cnc2c1ncn2[C@@H]1C=C(CO)[C@@H](O)[C@H]1O | >50 µg/mL
COC(=O)c1noc(/C=C/c2ccccc2)c1C(=O)c1ccccc1 | 88.07 µM
Cn1cc(NC(=O)c2cc(NC(=O)CCCCCCCCC(=O)Nc3cc(C(=O)Nc4cc(C(=O)NCCC(=N)N)n(C)c4)n(C)c3)cn2C)cc1C(=O)NCCC(=N)N | 44.95 µg/mL
Nc1nc(Cl)c2ncn(C[C@H]3CC[C@@H](CO)C3)c2n1 | ≥40 µg/mL
Nc1ccc2nc3ccc(N)cc3[n+](-c3ccccc3)c2c1 | 17.49 µg/mL
CC#Cc1cn([C@@H]2O[C@H](CO)[C@@H](O)[C@@H]2O)c(=O)[nH]c1=O | >500 µM
CO[C@H]1/C=C/O[C@@]2(C)Oc3c(C)c(O)c4c(O)c(c5c(c4c3C2=O)NC2(CCN(C)CC2)N=5)=NC(=O)/C(C)=C\C=C\[C@H](C)[C@H](O)[C@@H](C)[C@@H](O)[C@@H](C)[C@H](OC(C)=O)[C@@H]1C | 14.88 µg/mL
Nn1c(Nc2ccccc2)nc2sc3c(c2c1=O)CCC3 | 25 µg/mL
O=C1C=C(Nc2ccccc2C(=O)CC(=O)C(=O)Nc2ccc(Cl)cc2)c2ccccc2C1=O | 5.19 µg/mL
Nc1ncnc2c1ncn2COCCO | 209 µg/mL
O=[n+]1c2ccccc2n([O-])c2cc(Br)ccc21 | 0.49 µg/mL
NC(=O)c1nnn([C@@H]2C[C@H](CCP(=O)(O)O)C[C@H]2O)c1N | >100 µM
NC(=O)C#CC(N)=O | 6.15 µg/mL
NC(=O)c1cn([C@@H]2C[C@H](CCP(=O)(O)O)C[C@H]2O)nn1 | >100 µM
N#CC1(c2nc3ccccc3o2)C(=O)C(=O)N(c2ccc(Cl)c(Cl)c2)C(=O)C1=O | >10 µg/mL
c1ccc(C2=NCCN2)c(NCc2cccc3ccccc23)c1 | 4 µg/mL

Repeating the final 8 entries:

structure | value
O=C1C=C(Nc2ccccc2C(=O)CC(=O)C(=O)Nc2ccc(Cl)cc2)c2ccccc2C1=O | 5.19 µg/mL
Nc1ncnc2c1ncn2COCCO | 209 µg/mL
O=[n+]1c2ccccc2n([O-])c2cc(Br)ccc21 | 0.49 µg/mL
NC(=O)c1nnn([C@@H]2C[C@H](CCP(=O)(O)O)C[C@H]2O)c1N | >100 µM
NC(=O)C#CC(N)=O | 6.15 µg/mL
NC(=O)c1cn([C@@H]2C[C@H](CCP(=O)(O)O)C[C@H]2O)nn1 | >100 µM
N#CC1(c2nc3ccccc3o2)C(=O)C(=O)N(c2ccc(Cl)c(Cl)c2)C(=O)C1=O | >10 µg/mL
c1ccc(C2=NCCN2)c(NCc2cccc3ccccc23)c1 | 4 µg/mL